Test results from a compilation of properties of binary mixtures (doi:10.1021/acs.jpcc.7b06523).

Assay: xn = mol fraction of the nth substance listed
Details: 101 kPa

CCC[N+]1(C)CCCC1.O=S(=O)(F)[N-]S(=O)(=O)F + O=S(=O)(F)[N-]S(=O)(=O)F.[K+]
Details	electrical conductivity [S/m]	mass density [kg/m3]	viscosity [mPa·s]
258 K, x2 = 0.25	0.045	–	–
263 K, x2 = 0.1	0.15	–	–
263 K, x2 = 0.15	0.12	–	–
263 K, x2 = 0.2	0.088	–	–
263 K, x2 = 0.25	0.065	–	–
268 K, x2 = 0.05	0.23	–	–
268 K, x2 = 0.1	0.19	–	–
268 K, x2 = 0.15	0.15	–	–
268 K, x2 = 0.2	0.12	–	–
268 K, x2 = 0.25	0.091	–	–
273 K, x2 = 0.05	0.29	–	125
273 K, x2 = 0.15	0.2	–	200
273 K, x2 = 0.2	0.16	–	256
273 K, x2 = 0.25	0.12	–	342
278 K, x2 = 0.05	0.36	1374	100
278 K, x2 = 0.1	0.31	1393.5	123
278 K, x2 = 0.15	0.26	1414.6	155
278 K, x2 = 0.2	0.21	1437	195
278 K, x2 = 0.25	0.16	1461	255
283 K, x2 = 0.05	0.44	1369.8	81.3
283 K, x2 = 0.1	0.38	1389.3	98.2
283 K, x2 = 0.15	0.32	1410.3	123
283 K, x2 = 0.2	0.26	1432.6	152
283 K, x2 = 0.25	0.21	1456.6	196
288 K, x2 = 0	0.62	1347.2	56.9
288 K, x2 = 0.05	0.53	1365.7	67
288 K, x2 = 0.1	0.47	1385.1	80
288 K, x2 = 0.15	0.39	1406.1	98.1
288 K, x2 = 0.2	0.32	1428.4	120
293 K, x2 = 0	0.72	1343.1	47.8
293 K, x2 = 0.05	0.63	1361.6	55.7
293 K, x2 = 0.1	0.56	1381	65.9
293 K, x2 = 0.2	0.4	1424.1	96.8
293 K, x2 = 0.25	0.33	1447.9	121
298 K, x2 = 0	0.84	1339.1	40.6
298 K, x2 = 0.05	0.73	1357.5	46.9
298 K, x2 = 0.1	0.66	1376.9	55.6
298 K, x2 = 0.15	0.57	1397.7	66
298 K, x2 = 0.2	0.48	1419.8	78.2
298 K, x2 = 0.25	0.4	1443.6	98.4
303 K, x2 = 0	0.97	1335.1	34.8
303 K, x2 = 0.1	0.77	1372.7	46.9
303 K, x2 = 0.15	0.67	1393.5	54.9
303 K, x2 = 0.2	0.57	1415.6	64.7
303 K, x2 = 0.25	0.48	1439.3	79.4
308 K, x2 = 0	1.1	1331.1	30
308 K, x2 = 0.05	0.98	1349.5	34.2
308 K, x2 = 0.1	0.89	1368.7	39.9
308 K, x2 = 0.2	0.67	1411.4	54.1
308 K, x2 = 0.25	0.57	1435	65.7
313 K, x2 = 0	1.25	1327.2	26.1
313 K, x2 = 0.05	1.11	1345.4	29.8
313 K, x2 = 0.1	1.02	1364.6	34.3
313 K, x2 = 0.15	0.91	1385.2	39.4
313 K, x2 = 0.2	0.79	1407.2	45.6
318 K, x2 = 0.05	1.26	1341.4	26
318 K, x2 = 0.1	1.16	1360.5	29.6
318 K, x2 = 0.15	1.04	1381.1	33.8
318 K, x2 = 0.2	0.91	1403.1	38.9
318 K, x2 = 0.25	0.79	1426.6	46.7
323 K, x2 = 0.1	1.31	1356.5	25.8
323 K, x2 = 0.15	1.18	1377.1	29.1
323 K, x2 = 0.2	1.04	1398.9	33.4
323 K, x2 = 0.25	0.91	1422.4	39.8
328 K, x2 = 0	1.74	1315.3	17.8
328 K, x2 = 0.05	1.58	1333.5	19.8
328 K, x2 = 0.1	1.47	1352.5	–
